PubChem BioAssay AID624099 | ICCB-Longwood | 2012
Screen: 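Human genes that papillomavirus E2 requires to repress the HPV18 LCR promoter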 (primary screen). Cells: human C33A cervical carcinoma cells (HPV-negative) stably expressing BPV1 E2 and an HPV18 LCR luciferase reporter. Reagent: siRNA pool against human genes, 40 nM. Timing: 72 h. Measured: 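HPV18 LCR reporter light per well, converted to plate-wise z-scores that exclude control wells, and averaged over triplicate plates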. Reading the numbers: mean z-score and z-score: higher = stronger reporter signal, weaker E2 silencing. Hit rule: 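Mean z ≥ 2 together with z ≥ 2 in two or more of the three replicates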.
Here is one part, drawn at random, of about 21,000 reagents. Of all reagents, 497 (2.4%) got an active call. 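Higher z means weaker E2 silencing; only reporter increases were scored, and knock-downs that hurt cell survival may mask genuine repressor factors.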 No sequences are given here.

WDR33 (WD repeat domain 33) — mean z-score: -0.01; z-score, replicate A: -0.01; z-score, replicate B: 0.04; z-score, replicate C: -0.07; outcome: inactive
KCNB1 (potassium voltage-gated channel subfamily B member 1) — mean z-score: -0.26; z-score, replicate A: 0.01; z-score, replicate B: -0.19; z-score, replicate C: -0.61; outcome: inactive
SUCLG2P2 (SUCLG2 pseudogene 2) — mean z-score: 0.5; z-score, replicate A: 0.46; z-score, replicate B: 0.56; z-score, replicate C: 0.5; outcome: inactive
LOC387649 (retired record) — mean z-score: -0.39; z-score, replicate A: -0.72; z-score, replicate B: -0.38; z-score, replicate C: -0.07; outcome: inactive
SSTR3 (somatostatin receptor 3) — mean z-score: 0.15; z-score, replicate A: 0.12; z-score, replicate B: -0.19; z-score, replicate C: 0.52; outcome: inactive
CHD7 (chromodomain helicase DNA binding protein 7) — mean z-score: -0.5; z-score, replicate A: -0.19; z-score, replicate B: -0.69; z-score, replicate C: -0.64; outcome: inactive
ZNF234 (zinc finger protein 234) — mean z-score: -0.06; z-score, replicate A: 0.07; z-score, replicate B: -0.29; z-score, replicate C: 0.03; outcome: inactive
CLMN (calmin) — mean z-score: -0.03; z-score, replicate A: -0.38; z-score, replicate B: 0.25; z-score, replicate C: 0.03; outcome: inactive
SRP19 (signal recognition particle 19) — mean z-score: 0.62; z-score, replicate A: 0.74; z-score, replicate B: 0.54; z-score, replicate C: 0.57; outcome: inactive
MEAK7 (MTOR associated protein MEAK7) — mean z-score: -0.92; z-score, replicate A: -1.05; z-score, replicate B: -1.03; z-score, replicate C: -0.68; outcome: inactive
TIFA (TRAF interacting protein with forkhead associated domain) — mean z-score: -1.17; z-score, replicate A: -0.95; z-score, replicate B: -0.95; z-score, replicate C: -1.61; outcome: inactive
SFTPD (surfactant protein D) — mean z-score: 0.42; z-score, replicate A: 0.04; z-score, replicate B: 0.19; z-score, replicate C: 1.04; outcome: inactive
ACSM6 (acyl-CoA synthetase medium chain family member 6) — mean z-score: 1.31; z-score, replicate A: 0.93; z-score, replicate B: 0.36; z-score, replicate C: 2.63; outcome: inactive
COPS6 (COP9 signalosome subunit 6) — mean z-score: -0.39; z-score, replicate A: -0.61; z-score, replicate B: -0.51; z-score, replicate C: -0.04; outcome: inactive
CCT2 (chaperonin containing TCP1 subunit 2) — mean z-score: 1; z-score, replicate A: 1.01; z-score, replicate B: 0.66; z-score, replicate C: 1.33; outcome: inactive
OR7C1 (olfactory receptor family 7 subfamily C member 1) — mean z-score: 1.72; z-score, replicate A: 1.45; z-score, replicate B: 1.5; z-score, replicate C: 2.2; outcome: inactive
PRICKLE3 (prickle planar cell polarity protein 3) — mean z-score: 1.49; z-score, replicate A: 1.27; z-score, replicate B: 1.5; z-score, replicate C: 1.7; outcome: inactive

Entries above whose gene name starts with S or s:
SUCLG2P2 (SUCLG2 pseudogene 2) — mean z-score: 0.5; z-score, replicate A: 0.46; z-score, replicate B: 0.56; z-score, replicate C: 0.5; outcome: inactive
SSTR3 (somatostatin receptor 3) — mean z-score: 0.15; z-score, replicate A: 0.12; z-score, replicate B: -0.19; z-score, replicate C: 0.52; outcome: inactive
SRP19 (signal recognition particle 19) — mean z-score: 0.62; z-score, replicate A: 0.74; z-score, replicate B: 0.54; z-score, replicate C: 0.57; outcome: inactive
SFTPD (surfactant protein D) — mean z-score: 0.42; z-score, replicate A: 0.04; z-score, replicate B: 0.19; z-score, replicate C: 1.04; outcome: inactive

The listing continues.
BBLN (bublin coiled coil protein) — mean z-score: -2.51; z-score, replicate A: -2.5; z-score, replicate B: -2.6; z-score, replicate C: -2.43; outcome: inactive
DIP2C (DIP2 acetate--CoA ligase C (putative)) — mean z-score: 0.28; z-score, replicate A: 0.48; z-score, replicate B: 0.23; z-score, replicate C: 0.12; outcome: inactive
SPACA4 (sperm acrosome associated 4) — mean z-score: 0.76; z-score, replicate A: 0.56; z-score, replicate B: 0.87; z-score, replicate C: 0.84; outcome: inactive
OR8B8 (olfactory receptor family 8 subfamily B member 8) — mean z-score: 0.53; z-score, replicate A: 0.36; z-score, replicate B: 0.54; z-score, replicate C: 0.69; outcome: inactive
TMEM131 (transmembrane protein 131) — mean z-score: 0.39; z-score, replicate A: 0.9; z-score, replicate B: 0.23; z-score, replicate C: 0.04; outcome: inactive
LOC400807 (retired record) — mean z-score: 1; z-score, replicate A: 0.69; z-score, replicate B: 0.73; z-score, replicate C: 1.59; outcome: inactive
SLC25A35 — mean z-score: -0.29; z-score, replicate A: -0.48; z-score, replicate B: -0.51; z-score, replicate C: 0.1; outcome: inactive
LOC253662 (retired record) — mean z-score: -0.08; z-score, replicate A: 0.25; z-score, replicate B: -0.05; z-score, replicate C: -0.44; outcome: inactive
ANKRD20A8P (ankyrin repeat domain 20 family member A8, pseudogene) — mean z-score: -2.05; z-score, replicate A: -2.39; z-score, replicate B: -1.73; z-score, replicate C: -2.02; outcome: inactive
PRDM15 (PR/SET domain 15) — mean z-score: -0.1; z-score, replicate A: -0.45; z-score, replicate B: -0.69; z-score, replicate C: 0.85; outcome: inactive
